Earlier results in paper PMC2887854.
Several values for one entry are separate records, joined by “and”; a condition that tells them apart may be missing. Equal entries are not always repeated. Where two headings read alike, the source gives them in different places.

By UniProt entry, the sequences of proteins in these tests, tags left out. Residues count along the entry.
UniProt P13423, 30-764: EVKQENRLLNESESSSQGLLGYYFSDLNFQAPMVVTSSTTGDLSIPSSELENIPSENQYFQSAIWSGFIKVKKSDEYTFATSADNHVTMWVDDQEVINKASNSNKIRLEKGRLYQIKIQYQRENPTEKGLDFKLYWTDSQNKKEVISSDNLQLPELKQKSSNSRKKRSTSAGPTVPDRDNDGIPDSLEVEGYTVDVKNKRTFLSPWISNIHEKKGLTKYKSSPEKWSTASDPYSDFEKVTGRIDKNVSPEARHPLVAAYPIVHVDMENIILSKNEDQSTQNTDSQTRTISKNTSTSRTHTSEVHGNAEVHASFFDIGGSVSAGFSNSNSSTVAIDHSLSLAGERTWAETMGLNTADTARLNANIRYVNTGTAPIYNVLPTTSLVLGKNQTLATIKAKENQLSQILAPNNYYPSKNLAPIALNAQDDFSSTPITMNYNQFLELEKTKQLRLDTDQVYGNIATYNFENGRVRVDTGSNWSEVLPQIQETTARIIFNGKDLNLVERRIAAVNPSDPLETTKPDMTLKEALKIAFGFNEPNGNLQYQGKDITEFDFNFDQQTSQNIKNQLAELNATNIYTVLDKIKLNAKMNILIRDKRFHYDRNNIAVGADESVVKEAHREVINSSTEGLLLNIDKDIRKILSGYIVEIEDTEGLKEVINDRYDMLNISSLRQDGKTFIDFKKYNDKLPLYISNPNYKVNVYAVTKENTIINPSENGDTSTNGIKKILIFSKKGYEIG
UniProt Q9H6X2, 33-321: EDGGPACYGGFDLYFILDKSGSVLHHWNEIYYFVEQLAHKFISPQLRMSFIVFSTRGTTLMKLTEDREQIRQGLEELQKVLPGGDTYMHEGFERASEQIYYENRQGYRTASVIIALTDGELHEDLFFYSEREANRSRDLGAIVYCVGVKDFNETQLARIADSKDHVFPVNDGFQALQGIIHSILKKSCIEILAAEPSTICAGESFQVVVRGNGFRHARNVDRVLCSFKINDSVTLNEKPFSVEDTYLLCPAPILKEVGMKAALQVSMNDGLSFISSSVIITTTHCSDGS
UniProt Q9H6X2, 44-215: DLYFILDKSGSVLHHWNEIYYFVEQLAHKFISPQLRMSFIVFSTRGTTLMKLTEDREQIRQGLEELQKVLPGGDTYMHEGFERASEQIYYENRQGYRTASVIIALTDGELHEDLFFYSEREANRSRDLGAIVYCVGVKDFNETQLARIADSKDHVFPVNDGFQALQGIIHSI

Tests used:
PA (Bacillus anthracis) [1] = target: PA (Bacillus anthracis) (UniProt P13423); details: cited from earlier work
PA (Bacillus anthracis) [2] = target: PA (Bacillus anthracis) (UniProt P13423); details: cited from earlier work; remark: listed apart in the source

Substance | Kd (PA (Bacillus anthracis) [1]) | Kd (PA (Bacillus anthracis) [2])
TEM8 (from UniProt Q9H6X2) | 130 nM and 1100 nM | –
TEM8 vWA domain (from UniProt Q9H6X2) | – | 1100 nM and 130 nM
